Some peptides are written in HELM: one residue between dots, names in brackets for other building blocks, links after the first $.
assay: general procedure: Fmoc solid-phase peptide synthesis; 2-chlorotrityl chloride (2-CTC) resin, 100-200 mesh, 1% DVB, 1.06 mmol/g (Aapptec), loaded with Fmoc-L-Lys-OAll via side; DIC/OxymaPure; settings: whole synthesis

| Substance | isolated yield [%] |
| --- | --- |
| FA2-A2-Arg-Asn-Dab(*)-Ser-C2-Lys-Arg-Lys-* | 39 |
| FA2-A2-Lys-H3-Dab(*)-Lys-Asn-Lys-C2-C2-Lys-* | 22 |
| FA2-A3-C2-Asn-Arg-Dab(*)-Lys-C1-Lys-Lys-* | 10 |
| FA4-A2-C3-C2-Dab(*)-Arg-Gln-C2-H9-Lys-* | 3 |
| FA4-Val-C2-A1-Dab(*)-Lys-Gly-Lys-C3-Lys-* | 19 |
| FA5-A3-Lys-Asn-Dab(*)-Lys-H2-Lys-C3-Lys-* | 22 |
| FA5-A6-C2-Gln-Dab(*)-Lys-C1-Lys-Lys-* | 11 |
| FA5-C2-Tyr-Lys-Dab(*)-Lys-Arg-C2-Lys-* | 10 |
| FA5-C3-Val-A6-Dab(*)-C1-Lys-Lys-P3-Lys-* | 16 |
| FA5-Lys-A2-Lys-Dab(*)-Asn-Lys-C2-H7-Lys-* | 11 |
| FA7-A3-Gly-Arg-Dab(*)-H2-Asn-Lys-C3-Lys-* | 7 |
| FA7-H4-C3-A6-Dab(*)-C2-Lys-Ser-Lys-C1-Lys-* | 6 |
| FA10-A2-C1-C2-Dab(*)-Lys-Asn-Lys-Gly-Lys-* | 5 |
| FA10-A3-Lys-C2-Dab(*)-Asn-C2-Lys-Val-Lys-* | 22 |
| FA11-A2-Lys-Asn-Dab(*)-C2-Arg-C9-Lys-* | 22 |
| FA11-A2-Lys-Asn-Dab(*)-Lys-C3-Lys-C8-Lys-* | 4 |
| FA11-A7-Lys-Asn-Dab(*)-H2-Lys-C3-C2-Lys-* | 10 |
| FA12-A3-Lys-C2-Dab(*)-Asn-C2-Lys-Val-Lys-* | 28 |
| PEPTIDE1{[FA0].[Dab].T.[Dab].[Dab].[Dab].[dF].L.[Dab].[Dab].T}$PEPTIDE1,PEPTIDE1,5:R3-11:R2$$$V2.0 | 9 |
| PEPTIDE1{[FA1].[A3].S.[C2].[Dab].S.K.[H6].K.K.K}$PEPTIDE1,PEPTIDE1,5:R3-11:R2$$$V2.0 | 6 |
| PEPTIDE1{[FA2].K.[A5].K.[Dab].[C2].N.R.[H12].K}$PEPTIDE1,PEPTIDE1,5:R3-10:R2$$$V2.0 | 16 |

| Substance | isolated yield [%] |
| --- | --- |
| PEPTIDE1{[FA2].[A2].K.N.[Dab].[C2].S.S.[H7].[C1].K}$PEPTIDE1,PEPTIDE1,5:R3-11:R2$$$V2.0 | 9 |
| PEPTIDE1{[FA2].[A2].K.S.[Dab].[C2].[H10].K.[H6].[C2].K}$PEPTIDE1,PEPTIDE1,5:R3-11:R2$$$V2.0 | 4 |
| PEPTIDE1{[FA2].[A2].[C1].N.K.[Dab].S.K.[C1].K}$PEPTIDE1,PEPTIDE1,6:R3-10:R2$$$V2.0 | 31 |
| PEPTIDE1{[FA2].[A3].[C1].N.K.[Dab].N.K.[C2].K}$PEPTIDE1,PEPTIDE1,6:R3-10:R2$$$V2.0 | 22 |
| PEPTIDE1{[FA3].[A3].K.N.[Dab].[C3].N.A.[H10].K}$PEPTIDE1,PEPTIDE1,5:R3-10:R2$$$V2.0 | 17 |
| PEPTIDE1{[FA3].[A6].K.N.[Dab].[C2].[C2].[C1].K.K}$PEPTIDE1,PEPTIDE1,5:R3-10:R2$$$V2.0 | 52 |
| PEPTIDE1{[FA3].[A8].V.K.N.[Dab].[C2].[P1].K.K}$PEPTIDE1,PEPTIDE1,6:R3-10:R2$$$V2.0 | 8 |
| PEPTIDE1{[FA3].[C3].G.[A2].[Dab].K.K.[P1].N.K}$PEPTIDE1,PEPTIDE1,5:R3-10:R2$$$V2.0 | 15 |
| PEPTIDE1{[FA4].K.Y.K.[Dab].K.Q.K.K}$PEPTIDE1,PEPTIDE1,5:R3-9:R2$$$V2.0 | 7 |
| PEPTIDE1{[FA4].[A8].K.N.[Dab].N.[C2].K.P.K}$PEPTIDE1,PEPTIDE1,5:R3-10:R2$$$V2.0 | 24 |
| PEPTIDE1{[FA5].Y.Q.K.[Dab].Q.Q.K.K}$PEPTIDE1,PEPTIDE1,5:R3-9:R2$$$V2.0 | 13 |
| PEPTIDE1{[FA5].[A7].[C3].Q.[Dab].[C1].Q.K.K}$PEPTIDE1,PEPTIDE1,5:R3-9:R2$$$V2.0 | 15 |
| PEPTIDE1{[FA6].[C2].A.Y.R.[Dab].S.[C2].[C2].K}$PEPTIDE1,PEPTIDE1,6:R3-10:R2$$$V2.0 | 20 |
| PEPTIDE1{[FA7].K.K.Q.K.[Dab].N.Y.K}$PEPTIDE1,PEPTIDE1,6:R3-9:R2$$$V2.0 | 7 |
| PEPTIDE1{[FA8].[A2].K.K.N.[Dab].[C3].P.[P1].K}$PEPTIDE1,PEPTIDE1,6:R3-10:R2$$$V2.0 | 23 |
| PEPTIDE1{[FA8].[A8].K.N.[Dab].N.[H2].K.[C2].K}$PEPTIDE1,PEPTIDE1,5:R3-10:R2$$$V2.0 | 29 |
| PEPTIDE1{[FA10].K.Y.K.[Dab].Q.N.K.K}$PEPTIDE1,PEPTIDE1,5:R3-9:R2$$$V2.0 | 10 |
| PEPTIDE1{[FA11].[A2].[H12].N.[Dab].S.K.[C1].N.K}$PEPTIDE1,PEPTIDE1,5:R3-10:R2$$$V2.0 | 24 |
| PEPTIDE1{[FA11].[A3].P.K.[Dab].N.G.[H12].K.S.K}$PEPTIDE1,PEPTIDE1,5:R3-11:R2$$$V2.0 | 20 |
| PEPTIDE1{[FA12].[A8].K.N.[Dab].N.[H2].K.[C2].K}$PEPTIDE1,PEPTIDE1,5:R3-10:R2$$$V2.0 | 6 |

From PMC12124432 (Angewandte Chemie (International Ed. in English), 2025)
